Values quoted from earlier work, collected in PMC5465072.

By UniProt entry, the sequences of proteins in these tests, tags left out. Residues count along the entry.
UniProt Q9H6X2, 33-321: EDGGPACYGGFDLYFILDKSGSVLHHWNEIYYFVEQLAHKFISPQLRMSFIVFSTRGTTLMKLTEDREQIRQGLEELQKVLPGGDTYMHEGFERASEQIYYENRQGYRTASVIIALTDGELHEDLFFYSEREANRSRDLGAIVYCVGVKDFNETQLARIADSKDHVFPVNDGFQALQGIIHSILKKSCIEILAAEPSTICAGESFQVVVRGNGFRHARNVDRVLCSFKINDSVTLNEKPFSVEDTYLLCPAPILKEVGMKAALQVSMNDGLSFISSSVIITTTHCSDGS

Biological target: TEM8 (Homo sapiens) (UniProt Q9H6X2)

## PA (from UniProt P13423)
  Kd: 1100 nM
